Measured values from several laboratories, pooled; numbers as filed in NIAID ChemDB.

Common to all: whole-cell or culture tests; species: HIV-1; method: p24; measure: EC50

Neighbouring rows are from separate reports. ECn: concentration that inhibits the pathogen or its effect by n%. Blank or dashed fields: not listed here.

structure,mutations,strain or isolate,cells,result
O=c1[nH]cnc2c1ncn2[C@H]1CC[C@@H](CO)O1,-,NL-XM WT,PBMC,<28 µM
CC(C)Nc1cccnc1N1CCN(C(=O)c2cc3cc(NS(C)(=O)=O)ccc3[nH]2)CC1,-,458 clinical isolates delavirdine-resistant,PBMC,<7.7 µM
O=C1N(Cc2ccc(CO)cc2)[C@H](Cc2ccccc2)[C@H](O)[C@@H](O)[C@@H](Cc2ccccc2)N1Cc1ccc(CO)cc1,PR-L10R M46I L63P 184V,NL4-3,MT-4,<3 µM
S=C(NCCc1cccs1)Nc1ccc(Br)cn1,RT-M41L E44D D67N T69D L210W T215Y,T155-3 Clinical isolate NRTI-resistant,PBMC,0.0035 µM
c1ccc(CSc2nnnn2-c2cccc3ccccc23)nc1,-,-,MT-4,<10 µM
Cc1cn([C@H]2C[C@H](N=[N+]=[N-])[C@@H](CO)O2)c(=O)[nH]c1=O,-,8791 CLADE A CLADE A,PBMC,0.007 µM
O=c1c2ccccc2n2nnc3ccc(NCCCN4CCN(CCCNc5ccc6nnn7c8ccccc8c(=O)c5c67)CC4)c1c32,-,CLADE F,PBL,0.0074 µM
COC(=O)[C@H](C)NP(=O)(OC[C@@H]1C=C[C@H](n2cc(C)c(=O)[nH]c2=O)O1)Oc1ccc(Br)cc1,RT-M41L D67N K70R T215Y K219Q,G190-6 Clinical isolate ZDV-resistant,PBMC,0.0028 µM
COC(=O)[C@H](C)NP(=O)(OC[C@@H]1C=C[C@H](n2cc(C)c(=O)[nH]c2=O)O1)Oc1ccc(Br)cc1,RT-M41L T215Y,R416-10 NRTI resistant,PBMC,0.0002 µM
Cc1cn([C@H]2C[C@H](N=[N+]=[N-])[C@@H](CO)O2)c(=O)[nH]c1=O,RT-M41L D67N K70R T215Y K219Q,XM-AZT-resistant,MT-4,<23 µM
CC(=O)N1CCC(C(=O)N(CCCN2CCC(Cc3ccc(C(N)=O)cc3)CC2)c2ccc(C)c(Cl)c2)CC1,-,KK R5 clinical isolate,PBMC,0.0012 µM
Cc1cn([C@H]2C[C@H](N=[N+]=[N-])[C@@H](CO)O2)c(=O)[nH]c1=O,-,126 WT,MT-4,0.08 µM
Nc1ccn([C@H]2CC[C@@H](CO)O2)c(=O)n1,-,RF,PBL,0.009 µM
c1cc(CN2CCCNCCNCCCNCC2)ccc1CN1CCCNCCNCCCNCC1,-,SW20 CLADE C R5X4,PBMC,<0.5 µM
O=C1N(Cc2ccc(CO)cc2)[C@H](Cc2ccccc2)[C@H](O)[C@@H](O)[C@@H](Cc2ccccc2)N1Cc1ccc(CO)cc1,-,Clinical isolate D3,PBMC,0.05 µM
Cc1cc(C)c(-n2nnnc2SCC(=O)Nc2ccc(C)c([N+](=O)[O-])c2)c(C)c1,-,-,MT-4,<10 µM
Nc1ccn([C@H]2CC[C@@H](CO)O2)c(=O)n1,-,NL4-3 WT,MT-2,0.038 µM
O=C(CSc1nnnn1-c1cccc(Cl)c1Cl)Nc1ccccc1[N+](=O)[O-],-,-,MT-4,<10 µM
CCC[C@@]1(CCc2ccccc2)CC(O)=C([C@H](CC)c2cccc(NS(=O)(=O)c3ccc(C(F)(F)F)cn3)c2)C(=O)O1,-,Isolate N. Amer 2,PBMC,<0.17 µM
CCO/N=C(\c1ccc(Br)cc1)C1CCN(C2(C)CCN(C(=O)c3c(C)cc[n+]([O-])c3C)CC2)CC1,-,JV1083 R5 CLADE G,PBMC,0.00245 µM
Cc1cc(C)c(-n2nnnc2SCC(=O)Nc2cccc3c2C(=O)NC3=O)c(C)c1,-,-,MT-4,<10 µM
C[C@H](Cn1cnc2c(N)ncnc21)OCP(=O)(O)O,-,62J,PBMC,0.1 µM
Nc1nc(NC2CC2)c2ncn([C@H]3C=C[C@@H](CO)C3)c2n1,RT-T69G,-,MT-2,0.13 µM
CC(C)(C)NC(=O)[C@@H]1C[C@@H]2CCCC[C@@H]2CN1C[C@@H](O)[C@H](Cc1ccccc1)NC(=O)[C@H](CC(N)=O)NC(=O)c1ccc2ccccc2n1,PR-D30N A71V,NL4-3,MT-4,<0.01 µM
Cc1cn([C@H]2C[C@H](N=[N+]=[N-])[C@@H](CO)O2)c(=O)[nH]c1=O,RT-T69K K70G V75I F77L F116Y Q151M M184V,1617-1 NRTI resistant recombinant,PBMC,0.32 µM
O=c1[nH]cnc2c1ncn2[C@H]1CC[C@@H](CO)O1,-,263)(ddC,MT-4,15.8 µM
CC(C)(C)NC(=O)[C@@H]1C[C@@H]2CCCC[C@@H]2CN1C[C@@H](O)[C@H](Cc1ccccc1)NC(=O)[C@H](CC(N)=O)NC(=O)c1ccc2ccccc2n1,PR-L10R M46I L63P V82T I84V,NL4-3,MT-4,<0.2 µM
Cc1ccnc2c1NC(=O)c1cccnc1N2C1CC1,RT-Y181C,A17 NNRTI-resistant lab strain,PBMC,47 µM